From patent US20030119019 (published 2003)

Columns and labels:
[1] = target: T1, GST::bovP93-120 (PrP peptide) (Bos taurus, UniProt P10279 P10279:93-120); assay: EMSA; 10:1 protein:RNA
T1 chain: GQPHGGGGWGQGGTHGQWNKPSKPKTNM

[2] = target: T2, GST::P55-93 (PrP peptide) (Syrian golden hamster, UniProt P04273 P04273:55-93); assay: EMSA; 5:1 protein:RNA
T2 chain: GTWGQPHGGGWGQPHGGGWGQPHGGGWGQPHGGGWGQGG

[3] = target: T3, GST::P90-109 (PrP peptide) (Syrian golden hamster, UniProt P04273 P04273:90-109); assay: EMSA; 5:1 protein:RNA
T3 chain: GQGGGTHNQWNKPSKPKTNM

[4] = target: T4, GST::P218-231 (PrP peptide) (Syrian golden hamster, UniProt P04273 P04273:218-231); assay: EMSA; 5:1 protein:RNA
T4 chain: YQKESQAYYDGRRS

Measured: binding result

B1: Ap2 motif II (ssRNA)
RNA: GGAGCUCAGCCUUCACUGCUACCUUAGAGUAGGAGCGGGACGAGGGGUUGUUGGGACGUGGGUAUGAUCCAUACAUUAGGAAGCUGGUGAGCUGGCACCACGGUCGGAUCCAC
no binding: [1] | [2] | [3] | [4]

B2: Ap1 motif I 60mer (ssRNA)
RNA: GCAAUGCGUUGUGUGGGAAUUUGAGGGACGAUGGGGAAGUGGGGACGAAUGACUCAUUGC
no binding: [2] | [3] | [4]
